A mixed list of measured activities; the numbers were collected in NIAID ChemDB.

Common to all: tests in culture

Percent inhibition refers to the dose given; in toxicity tests it is the harm to the cells.

compound,strain,endpoint,dose,species,read by,conditions,result
CC1(C)N=C(N)N=C(N)N1OCCCOc1cc(Cl)c(Cl)cc1Cl,1317,MIC,-,Mycobacterium avium complex,-,-,4 µg/mL
CC[C@H]1OC(=O)[C@H](C)[C@@H](OC2C[C@@](C)(OC)[C@@H](OC(=O)c3ccccc3)[C@H](C)O2)[C@H](C)[C@@H](O[C@@H]2O[C@H](C)C[C@H](N(C)C)[C@H]2O)C(C)(O)C[C@@H](C)/C(=N\OCCCOc2ccccc2)[C@H](C)[C@@H](O)[C@]1(C)O,20039 (clarithromycin-susceptible),MIC,-,Mycobacterium avium complex,-,-,1.56 µg/mL
Cc1ccc(-n2c(=S)oc3ccc(Br)cc3c2=S)cc1,My 235/80,MIC,-,Mycobacterium kansasii,-,14 d,4 µM
CCOc1ccc(N2CCN(c3ccc(CNC(=O)c4c(CC)nc5ccc(Cl)cn45)c(F)c3)C[C@@H]2C)cc1.Cl,-,inhibition,0.046 µM,Mycobacterium avium,fluorescence,-,85%
CCCCCCCCCCCCCCCCOC(=O)NC(C)(CCC(=O)O)CCC(=O)O,ATCC 927,MIC,-,Mycobacterium marinum,-,-,144 µg/mL
Cc1ccc2oc(=O)n(-c3ccc(F)cc3)c(=S)c2c1,6509/96,MIC,-,Mycobacterium kansasii,-,14 d,8 µM
Cc1ccc2nc(C)c(C(=O)NCc3ccc4c(c3)OCCO4)n2c1,-,inhibition,0.86 µM,Mycobacterium avium,fluorescence,-,85%
CCCCCCCCCCCCCCCCCCCCCOC(=O)NC(CCC(=O)O)(CCC(=O)O)CCC(=O)O,mc155,MIC,-,Mycobacterium smegmatis,-,-,5 µg/mL
Cc1nn2ccccc2c1C(=O)NCc1ccc(N2CCN(c3ccc(OC(F)(F)F)cc3)[C@@H](C)C2)c(F)c1.Cl,-,inhibition,0.092 µM,Mycobacterium avium,fluorescence,-,85%
CCCCCCCCCCCC(CCCCCCCCCCC)OC(=O)NC(CCC(=O)O)(CCC(=O)O)CCC(=O)O,AAy-P-1,MIC,-,Mycobacterium abscessus,-,-,27 µg/mL
CC[C@H]1OC(=O)[C@H](C)[C@@H](O[C@H]2C[C@@](C)(OC)[C@@H](OC(C)=O)[C@H](C)O2)[C@H](C)[C@@H](O[C@@H]2O[C@H](C)C[C@H](N(C)C)[C@H]2O)C(C)(O)C[C@@H](C)/C(=N\OCCc2cccs2)[C@H](C)[C@@H](O)[C@]1(C)O,20096 (clarithromycin-resistant),MIC,-,Mycobacterium avium complex,-,-,12.5 µg/mL
Cc1nc2ccc(Cl)cn2c1C(=O)NCc1ccc(N2CCN(c3ccc(OC(F)(F)F)cc3)C[C@H]2C)c(F)c1,-,inhibition,0.036 µM,Mycobacterium avium,fluorescence,-,85%
CCCCCCCCCCCCCCC(=O)NC(CCC(=O)O)(CCC(=O)O)CCC(=O)O,ATCC 927,MIC,-,Mycobacterium marinum,-,-,216 µg/mL
CO[C@H]1/C=C/O[C@@]2(C)Oc3c(C)c(O)c4c(O)c(c5c(c4c3C2=O)NC2(CCN(CC(C)C)CC2)N=5)=NC(=O)/C(C)=C\C=C\[C@H](C)[C@H](O)[C@@H](C)[C@@H](O)[C@@H](C)[C@H](OC(C)=O)[C@@H]1C,1023,MIC,-,Mycobacterium avium intracellulare,-,-,0.25 µg/mL
FC(F)(F)c1ccc(-n2c(=S)oc3ccc(Cl)cc3c2=S)cc1,My 235/80,MIC,-,Mycobacterium kansasii,-,14 d,16 µM
Nc1ccc(S(=O)(=O)c2ccc(N)cc2)cc1,DW26,MIC,-,Mycobacterium avium complex,-,-,32 µg/mL
O=c1oc2ccc(F)cc2c(=S)n1-c1ccc(F)cc1,6509/96,MIC,-,Mycobacterium kansasii,-,14 d,8 µM
CCCCCCCCCCCCCCCCCCCCC(=O)NC(C)(CCC(=O)O)CCC(=O)O,AAy-P-1,MIC,-,Mycobacterium abscessus,-,-,6.8 µg/mL
COc1ccc2oc(=O)n(-c3ccc(C(F)(F)F)cc3)c(=S)c2c1,My 235/80,MIC,-,Mycobacterium kansasii,-,21 d,62.5 µM
CCCCCCCCCCCCCCCCCCNC(=O)NC(CCC(=O)O)(CCC(=O)O)CCC(=O)O,EO-P-1,MIC,-,Mycobacterium chelonae,-,-,3 µg/mL
CCCCOc1ccc(N2CCN(c3ccc(CNC(=O)c4c(CC)nc5ccc(Cl)cn45)c(F)c3)C[C@@H]2C)cc1.Cl,-,inhibition,0.019 µM,Mycobacterium avium,fluorescence,-,85%
COc1ccc2oc(=O)n(-c3ccc(Cl)c(Cl)c3)c(=S)c2c1,My 235/80,MIC,-,Mycobacterium kansasii,-,14 d,62.5 µM

A second listing of 2 rows from above:

compound | strain | endpoint | dose | species | read by | conditions | result
CCCCCCCCCCCC(CCCCCCCCCCC)OC(=O)NC(CCC(=O)O)(CCC(=O)O)CCC(=O)O | AAy-P-1 | MIC | - | Mycobacterium abscessus | - | - | 27 µg/mL
CCCCCCCCCCCCCCCCOC(=O)NC(C)(CCC(=O)O)CCC(=O)O | ATCC 927 | MIC | - | Mycobacterium marinum | - | - | 144 µg/mL

An empty or dashed field is not shown. Conditions beyond the fields shown may differ between rows.